Measured values from several laboratories, pooled; numbers as filed in NIAID ChemDB.

All rows: whole-cell or culture tests

Lines come from different laboratories, so protocols vary. Inhibition is in % at the dose shown (toxicity tests: loss of growth or viability). ECn: concentration that inhibits the pathogen or its effect by n%. An empty or dashed field is not shown. a–b is a range or a potency band.

SMILES,endpoint,cell line,tested at,strain,organism,result
CC1=C[C@H]2O[C@@H]3C[C@H]4OC(=O)/C=C\C=C\C(=O)OCC[C@@H](C)[C@H](O)C(=O)OC[C@@]2(CC1)[C@]4(C)[C@]31CO1,EC50,VERO,-,-,Junin virus,0.0049 µg/mL
Nc1ccn([C@H]2CC[C@@H](CO)O2)c(=O)n1,EC50,HFF,-,-,Cowpox virus,>474 µM
Nc1ncnc2c1ncn2C[C@@H](CO)OCP(=O)(O)O,EC50,VERO 76,-,Zaire strain wild-type,Monkeypox virus,3.7 µM
Cn1cc(NC(=O)c2cc(NC(=O)c3cc(NC=O)cn3C)cn2C)cc1C(=O)NCCC(=N)N,inhibition,BSC-40,50 µM,-,Vaccinia virus,100%
CCCCCCCCN1[C@H](CN)[C@@H](O)[C@H](O)[C@H]1CO,EC50,-,-,-,Japanese encephalitis virus,>10 µM
N#Cc1c(SCCO)nsc1-c1ccccc1,EC50,HEP-2,-,Brunhilde (type 1),Poliovirus,0.3 µg/mL
NC(=O)c1c[se]c([C@@H]2O[C@H](CO)[C@@H](O)[C@H]2O)n1,EC50,VERO 76,-,Nakayama,Japanese encephalitis virus,3 µg/mL
CC(C)(C)NC(=O)[C@@H]1CN(Cc2cccnc2)CCN1C[C@@H](O)C[C@@H](Cc1ccccc1)C(=O)N[C@H]1c2ccccc2C[C@H]1O,EC50,HFF,-,-,Cowpox virus,>300 µM
CC1=C[C@H]2O[C@@H]3C[C@H]4OC(=O)/C=C\C=C\[C@H]([C@@H](C)O)OCC[C@@H](C)[C@H](O)C(=O)OC[C@@]2(CC1)[C@]4(C)[C@]31CO1,EC50,VERO,-,-,Junin virus,0.0031 µg/mL
O=C1Nc2ncn(Cc3ccccc3)c2C(=O)N(Cc2ccccc2)N1,EC50,HepG2.2.15,-,-,Japanese encephalitis virus,>500 µM
Cn1cnc([N+](=O)[O-])c1Sc1ncnc2nc[nH]c12,inhibition,BSC-40,25 µg/mL,-,Vaccinia virus,80%
Nc1ccn(C[C@@H](CO)OCP(=O)(O)O)c(=O)n1,EC50,VERO,-,-,Vaccinia virus,18 µg/mL
COc1cc(NC(=O)Nc2cccc(CNC(=O)O[C@H]3CCOC3)c2)ccc1-c1cnco1,EC50,VERO,-,-,Venezuelan equine encephalitis virus,19.2 µM
Nc1ccn([C@@H]2C[C@H](CO)[C@@H](O)[C@H]2O)c(=O)n1,EC50,VERO,-,XJCL3,Junin virus,0.2 µg/mL
CC(C)c1nc(CN(C)C(=O)N[C@H](C(=O)N[C@@H](Cc2ccccc2)C[C@H](O)[C@H](Cc2ccccc2)NC(=O)OCc2cncs2)C(C)C)cs1,EC50,HFF,-,-,Cowpox virus,>300 µM
CCCSc1nsc(-c2ccccc2)c1C#N,EC50,HEP-2,-,Brunhilde (type 1),Poliovirus,15 µg/mL
OCCOC(CCO)n1cnc2cc(Cl)c(Cl)cc21,EC50,HeLa,-,TYPE 1,Poliovirus,>200 µg/mL
NC(=O)c1c[se]c([C@@H]2O[C@H](CO)[C@@H](O)[C@H]2O)n1,EC50,VERO,-,Zagazig 501,Rift valley fever virus,2.8 µg/mL
Nc1ncnc2c1ncn2C[C@H](O)CO,EC50,VERO,-,XJCL3,Junin virus,14 µg/mL
Nc1ncnc2c1ncn2[C@@H]1C=C(CO)[C@@H](O)[C@H]1O,MIC,-,-,-,Junin virus,0.3 µg/mL
O[C@@H]1[C@@H](OCc2ccccc2)[C@@H](COCc2ccccc2)O[C@H]1n1cnc2cc(Cl)c(Cl)cc21,EC50,HeLa,-,TYPE 1,Poliovirus,>10 µg/mL
COc1c(C)c2c(c(O)c1C/C=C(\C)CCC(=O)O)C(=O)OC2,EC50,VERO 76,-,-,Camelpox virus,1.3 µM
Nc1ncnc2c1ccn2[C@@H]1O[C@H](CO)[C@@H](O)[C@H]1O,EC50,VERO,-,XJCL3,Junin virus,0.05 µg/mL
Nc1ncnc2c1ncn2C[C@H](O)CO,EC50,HeLa,-,TYPE 1,Poliovirus,>400 µg/mL
Nc1nc(=O)n2ccn([C@@H]3O[C@H](CO)[C@@H](O)[C@H]3O)c2n1,EC50,VERO,-,-,Yellow fever virus,10 µg/mL
CSc1nsc(-c2ccccc2)c1C(N)=O,EC50,HEP-2,-,Brunhilde (type 1),Poliovirus,>250 µg/mL
CN1CCC2(CC3CCC2(C)C3(C)C)C1,inhibition,Chick embryo fibroblasts,100 µM,A2 JAPAN,Influenza A virus,20–40%
Nc1ccn([C@@H]2C=C(CO)[C@@H](O)[C@H]2O)c(=O)n1,EC50,PRK,-,-,Vaccinia virus,0.02 µg/mL
CCCCCCCCCCCCNc1nc(=O)c2ncn([C@@H]3O[C@H](CO)[C@@H](O)[C@H]3O)c2c(=O)[nH]1,EC50,HepG2.2.15,-,-,Japanese encephalitis virus,10 µM
N#Cc1c(SCCCBr)nsc1-c1ccccc1,EC50,HEP-2,-,Brunhilde (type 1),Poliovirus,>25 µg/mL
Nc1ccn([C@@H]2CS[C@H](CO)O2)c(=O)n1,EC50,VERO,-,-,Cowpox virus,>436 µM
C=CCN1CCC2(C1)C1CC3CC(C1)CC2C3,inhibition,Chick embryo fibroblasts,100 µM,A2 JAPAN,Influenza A virus,>70%
Nc1ccn([C@@H]2C=C(CO)[C@@H](O)[C@@H]2O)c(=O)n1,EC50,VERO,-,XJCL3,Junin virus,0.03 µg/mL
Nc1ncnc2c1ncn2[C@H]1C[C@@H](O)[C@H](O)[C@@H]1O,EC50,E6SM,-,-,Vaccinia virus,0.7 µg/mL
O=C1NNC(=O)c2[nH]cnc2N1,EC50,HepG2.2.15,-,-,Japanese encephalitis virus,>500 µM
Cc1ccnc2c1NC(=O)c1cccnc1N2C1CC1,EC50,HFF,-,-,Cowpox virus,>300 µM
NC(=O)N=NC(N)=O,EC50,VERO,-,-,Junin virus,>100 µM
O=[N+]([O-])c1cc(Cl)c(Cl)cc1[N+](=O)[O-],EC50,HeLa,-,TYPE 1,Poliovirus,>4 µg/mL
NC(=O)c1ncn([C@@H]2O[C@H](CO)[C@@H](O)[C@H]2O)n1,inhibition,-,50 µg/mL,-,Vaccinia virus,100%
Nc1ncnc2c1ncn2[C@@H]1O[C@H](CO)C(O)OC1O,EC50,VERO,-,XJCL3,Junin virus,0.6 µg/mL
CC(C)CCC[C@@H](C)[C@H]1CCC2C3CC[C@H]4C[C@H](OS(=O)(=O)O)[C@@H](OS(=O)(=O)O)C[C@]4(C)C3CC[C@@]21C,EC50,VERO,-,IV4454,Junin virus,>25 µg/mL
O=c1cnn([C@@H]2O[C@H](CO)[C@@H](O)[C@H]2O)c(=O)[nH]1,EC50,3T3,-,-,Camelpox virus,4.5 µM
Nc1ncnc2c1ncn2[C@@H]1OC(C#CI)[C@@H](O)[C@H]1O,EC50,E6SM,-,-,Vaccinia virus,0.1 µg/mL
CCCCCCCCCCCCCCCCCCOCCOP(=O)(O)CO[C@H](CO)Cn1ccc(N)nc1=O,EC50,HFF,-,NYC,Vaccinia virus,0.1 µM
Nc1ncnc2c1ncn2[C@H]1C[C@H](F)[C@@H](CO)O1,EC50,VERO,-,-,Venezuelan equine encephalitis virus,5.3 µM
C1CC2C3CC(C2C1)C1(CCNC1)C3,inhibition,Chick embryo fibroblasts,100 µM,A2 JAPAN,Influenza A virus,40–70%
N=C(N)c1ncn([C@@H]2O[C@H](CO)[C@@H](O)[C@H]2O)n1,inhibition,MDCK,11 µg/mL,H5N1 A/duck/MN/1525/81,Influenza A virus,90%
CC(C)N1CCC2(C1)C1CC3CC(C1)CC2C3,inhibition,Chick embryo fibroblasts,100 µM,A2 JAPAN,Influenza A virus,40–70%
O=c1[nH]c(=O)n([C@H]2C[C@H](O)[C@@H](CO)O2)cc1C(F)(F)F,EC50,PRK,-,-,Vaccinia virus,0.2 µg/mL
CSc1nsc(-c2ccccc2)c1C#N,EC50,HEP-2,-,Brunhilde (type 1),Poliovirus,0.045 µg/mL
CC1(C)[C@@H](O[C@H]2O[C@H](C(=O)O)[C@@H](O)[C@H](O)[C@H]2O[C@@H]2O[C@H](C(=O)O)[C@@H](O)[C@H](O)[C@H]2O)CC[C@]2(C)[C@H]3C(=O)C=C4[C@@H]5C[C@@](C)(C(=O)O)CC[C@]5(C)CC[C@@]4(C)[C@]3(C)CC[C@@H]12,EC90,VERO,-,17D,Yellow fever virus,530 µg/mL
CC(=O)N[C@H]1[C@@H](O[C@@H]2O[C@H](C[C@@H](O)[C@H]3O[C@@H](n4ccc(=O)[nH]c4=O)[C@H](O)[C@@H]3O)[C@H](O)[C@H](O)[C@H]2NC(=O)/C=C/CC(C)C)O[C@H](CO)[C@@H](O)[C@@H]1O,inhibition,BSC-1,0.5 µg/mL,TYPE 1,Poliovirus,0%
Cc1cn([C@H]2C=C[C@@H](CO)O2)c(=O)[nH]c1=O,EC50,HFF,-,-,Cowpox virus,>300 µM
Nc1ncnc2c1ncn2[C@@H]1C=C(CO)[C@@H](O)[C@H]1O,EC50,VERO,-,-,Junin virus,6.5 µg/mL
O=c1[nH]c(=O)n([C@H]2C[C@H](O)[C@@H](CO)O2)cc1/C=C/Br,EC50,PRK,-,-,Vaccinia virus,7 µg/mL
Nc1ccn(C[C@@H](CO)OCP(=O)(O)O)c(=O)n1,EC50,BSC,-,-,Camelpox virus,28 µM
O=c1[nH]cnc2c1ncn2[C@H]1CC[C@@H](CO)O1,EC50,HFF,-,-,Cowpox virus,>423 µM
N#Cc1c(N2CCCC2)nsc1-c1ccccc1,EC50,HEP-2,-,Brunhilde (type 1),Poliovirus,0.1 µg/mL
Nc1ncnc2c1ncn2[C@H]1[C@H](O)[C@H](O)[C@@H](CO)[C@H]1F,EC50,L929,-,-,Vaccinia virus,0.2 µg/mL
CC(C)[Si]1(C(C)C)OC[C@H]2O[C@@H](n3cnc4cc(Cl)c(Cl)cc43)[C@@H](O)[C@H]2O[Si](C(C)C)(C(C)C)O1,EC50,HeLa,-,TYPE 1,Poliovirus,>400 µg/mL
Nc1ccn(C[C@@H](CO)OCP(=O)(O)O)c(=O)n1,EC50,VERO,-,-,Cowpox virus,45 µM

5 of the rows above, restated:

{"SMILES": "O=C1NNC(=O)c2[nH]cnc2N1", "endpoint": "EC50", "cell line": "HepG2.2.15", "organism": "Japanese encephalitis virus", "result": ">500 µM"}
{"SMILES": "COc1c(C)c2c(c(O)c1C/C=C(\\C)CCC(=O)O)C(=O)OC2", "endpoint": "EC50", "cell line": "VERO 76", "organism": "Camelpox virus", "result": "1.3 µM"}
{"SMILES": "Nc1ccn([C@@H]2C=C(CO)[C@@H](O)[C@H]2O)c(=O)n1", "endpoint": "EC50", "cell line": "PRK", "organism": "Vaccinia virus", "result": "0.02 µg/mL"}
{"SMILES": "O=[N+]([O-])c1cc(Cl)c(Cl)cc1[N+](=O)[O-]", "endpoint": "EC50", "cell line": "HeLa", "strain": "TYPE 1", "organism": "Poliovirus", "result": ">4 µg/mL"}
{"SMILES": "CCCCCCCCCCCCNc1nc(=O)c2ncn([C@@H]3O[C@H](CO)[C@@H](O)[C@H]3O)c2c(=O)[nH]1", "endpoint": "EC50", "cell line": "HepG2.2.15", "organism": "Japanese encephalitis virus", "result": "10 µM"}